Experiments:
[1] = tested on: Pyricularia oryzae; assay: Antifungal activity against MBI-D-resistant Magnaporthe oryzae SW (OYU-1) with Val75Met SDH mutant in rice seedlings assessed as preventive value of rice blast at 5 ug/ml foliar spray at 26 degC by pot test
[2] = tested on: Pyricularia oryzae; assay: Antifungal activity against MBI-D-resistant Magnaporthe oryzae SW (OYU-1) with Val75Met SDH mutant in rice seedlings assessed as preventive value of rice blast at 5 ug/ml systemic application at 22 to 30 degC by pot test

| SMILES | Activity [1] | Activity [2] |
| --- | --- | --- |
| CCC1(C(=O)NC(C)C2CCCC2)C(C)C1(Cl)Cl (configuration not stated) | <=40% | – |
| CCC1(C(=O)NC(C)c2csc(Cl)c2)C(C)C1(Cl)Cl (configuration not stated) | < 40% | <=40% |
| CC(C)(C)C(Cl)C(=O)NCCc1csc(Cl)c1 (configuration not stated) | <=40% | <=40% |
| CCC1(C(=O)NCCc2ccc(Cl)s2)C(C)C1(Cl)Cl (configuration not stated) | – | 65% |
| CCC1(C(=O)NCCc2cc(Cl)sc2Cl)C(C)C1(Cl)Cl (configuration not stated) | 65% | <=40% |
| CCC1(C(=O)NCCc2cc(Cl)cs2)C(C)C1(Cl)Cl (configuration not stated) | 65% | 65% |
| CCC1(C(=O)NCCc2ccc(Br)cc2)C(C)C1(Cl)Cl (configuration not stated) | 40% | – |
| CCC1(C(=O)NCC(C)c2ccc(Cl)cc2)C(C)C1(Cl)Cl (configuration not stated) | – | <=40% |
| CCC1(C(=O)NCCc2ccsc2)C(C)C1(Cl)Cl (configuration not stated) | < 40% | < 40% |
| CCC1(C(=O)NC(C)Cc2ccc(Cl)cc2)C(C)C1(Cl)Cl (configuration not stated) | – | <=40% |
| CCC1(C(=O)NC(C)c2cc(Cl)c(Cl)s2)C(C)C1(Cl)Cl (configuration not stated) | < 40% | <=40% |
| CC[C@@]1(C(=O)N[C@H](C)c2ccc(Cl)cc2)[C@@H](C)C1(Cl)Cl (mixture of isomers) [CARPROPAMIDE] | 40% | 40% |
| CCC1(C(=O)NC(C)c2cc(Cl)cs2)C(C)C1(Cl)Cl (configuration not stated) | < 40% | <=40% |
| CCC1(C(=O)NCCc2cccc(Cl)c2)C(C)C1(Cl)Cl (configuration not stated) | <=40% | – |
| CC1C(Cl)(Cl)C1(C)C(=O)NCCc1csc(Cl)c1 (configuration not stated) | < 40% | < 40% |
| CCC1(C(=O)NCc2ccc(Cl)cc2)C(C)C1(Cl)Cl (configuration not stated) | < 40% | <=40% |
| CCC1(C(=O)NCCCc2ccc(Cl)cc2)C(C)C1(Cl)Cl (configuration not stated) | < 40% | <=40% |
| CCC1(C(=O)NCCc2cc(Cl)c(Cl)s2)C(C)C1(Cl)Cl (configuration not stated) | – | <=40% |
| CCC1(C(=O)NCCc2ccc(C(F)(F)F)cc2)C(C)C1(Cl)Cl (configuration not stated) | – | 65% |
| CCC1(C(=O)NC(C)c2ccc(Cl)s2)C(C)C1(Cl)Cl (configuration not stated) | < 40% | < 40% |
